2 molecules from patent US20050170334A1 (published 2005) can be followed below.

The target in this experiment is T1, M2 expressed on A/HK/8/68 infected MDCK cells (influenza A virus A/HK/8/68).
T1 construct: whole, on cells
Description: cell-based ELISA, infected MDCK cells. (In general: In an ELISA, binding on a coated surface is turned into a signal by an enzyme label.)

B1: C40G1 (antibody, V domains shown)
VH: QLQLQESGPGLVKPSETLSLTCTVSGGSISSSFYYCGWIRQPPGKGLEWIGSIYYRGSTYYNPSLKSRVTISVDTSKNQFSLKLSSVTAADTAVYYCARRVTMVRGVKGDYFDYWGQGTLVTVSS
VL: DIQMTQSPSSLSASVGDRVTITCRASQGISSWLAWYQQKPEKVPKSLIYAASSLQSGVPSRFSGSGSGTDFTLTISSLQPEDFATYYCQQYNYYPLTFGGGTKVEIKR
Consider B1, for which a half-maximal effect (EC50) was put at 0.0971 µg/mL.

B2: C40G4 (antibody, V domains shown)
VH: QLQLQESGPGLVKPSETLSLTCTVSGGSISSSFYYCGWIRQPPGKGLEWIGSIYYRGSTYYNPSLKSRVTISVDTSKNQFSLKLSSVTAADTAVYYCARRVTMVRGVKGDYFDYWGQGTLVTVSS
VL: DIQMTQSPSSLSASVGDRVTITCRASQGISSWLAWYQQKPEKVPKSLIYAASSLQSGVPSRFSGSGSGTDFTLTISSLQPEDFATYYCQQYNYYPLTFGGGTKVEIKR
As to B2, a half-maximal response (EC50) required 0.841 µg/mL. This EC50 lies about 8.7-fold higher than the previous one.
